Measured values from several laboratories, pooled; numbers as filed in NIAID ChemDB.

Common to all: whole-cell or culture tests; organism: Coxsackie virus; method: cytopathic effect; measure: EC50

ECn is the concentration giving n% inhibition of infection, replication or growth. Blank or dashed fields: not listed here. Conditions beyond the fields shown may differ between rows. a–b is a range or a potency band.

SMILES	strain or isolate	cells	value
Cc1ccc(CCCOc2c(C)cc(-c3noc(C)n3)cc2C)nn1		HeLa	0.033–0.659 µg/mL
Cc1ccc(C(=O)CCCCCCOc2ccc(C3=N[C@@H](C)CO3)cc2)s1	TYPE B2	VERO	>25.97 µM
CC1(C)[C@@H](CCO)C[C@H]1n1cnc2c(N)nc(N)nc21	TYPE B4	HeLa	100 µg/mL
CCC(Sc1ncnc2c1cnn2COCCO)C(N)=O	TYPE B4	HeLa	>400 µg/mL
CC1(C)[C@@H](CCO)C[C@H]1n1nnc2c(Cl)nc(N)nc21	TYPE B4	VERO	>200 µg/mL
CC=NC(=N)c1nc(-c2cccc(C)c2)n(COCCO)n1	TYPE B4	VERO	>20 µg/mL
CCc1ccc(CCCOc2cc(C)c(-c3noc(C(F)(F)F)n3)c(C)c2)nn1		HeLa	0.033–0.659 µg/mL
CC(C)S(=O)(=O)c1ccc(Oc2ccc(C(=O)c3ccccc3)cc2)nc1	TYPE A21	HeLa	>5 µg/mL
Cc1cc(OCCCc2ccc(CO)nn2)cc(C)c1-c1noc(C(F)(F)F)n1		HeLa	0.033–0.659 µg/mL
CS(=O)(=O)c1ccc(Oc2ccc(C(=O)c3ccccc3)cc2)nc1	A21	HeLa	1.3 µg/mL
NC(=O)CSc1ncnc2c1cnn2CCCCO	TYPE B4	VERO	>400 µg/mL
Cc1ccc(C(=O)CCCCOc2ccc(C3=NC(C)CO3)cc2)s1	TYPE B2	VERO	3.08 µM
CC(Sc1ncnc2c1cnn2COCC(O)CO)C(N)=O	TYPE B4	VERO	>400 µg/mL
Cc1ccc(CCCOc2c(C)cc(-c3noc(C(F)F)n3)cc2C)nn1		HeLa	0.033–0.659 µg/mL
CCC1COC(c2ccc(OCCCCC(=O)c3ccc(C)s3)cc2)=N1	TYPE B5	VERO	>26.95 µM
CCC(Sc1ncnc2c1cnn2CCCCO)C(N)=O	TYPE B4	VERO	>400 µg/mL
CC(=O)c1ccc(CCCOc2cc(C)c(-c3noc(C)n3)c(C)c2)nn1		HeLa	0.033–0.659 µg/mL
CC=NC(=N)c1nc(-c2ccccc2)n(COCCO)n1	TYPE B4	HeLa	>200 µg/mL
Cc1cn([C@H]2C[C@H]([N+](=O)[O-])[C@@H](CO)O2)c(=O)[nH]c1=O		VERO	>200 µg/mL
CCC1COC(c2ccc(OCCCCCCC(=O)c3ccc(C)s3)cc2)=N1	TYPE B5	VERO	>25.06 µM
CC1(C)[C@@H](CCO)C[C@H]1n1cnc2c(N)ncnc21	TYPE B4	VERO	>400 µg/mL
CC=NC(=N)c1nc(-c2cccc(C)c2)n(Cc2ccccc2)n1	TYPE B4	VERO	>10 µg/mL
Cc1ccc(C(=O)CCCCOc2ccc(C3=NCC(C)O3)cc2Cl)s1	TYPE B5	VERO	17.24 µM
Cc1cc(-c2noc(C(F)F)n2)cc(C)c1OCCCc1cccnn1		HeLa	0.033–0.659 µg/mL
CCOC(=O)c1ccc(OCCCCC(=O)c2ccc(C)s2)cc1	TYPE B2	VERO	>26.72 µM
N#Cc1cccnc1Oc1ccc(C(=O)c2ccccc2)cc1	TYPE A21	HeLa	≤2.1 µg/mL
CC=NC(=N)c1nc(-c2cccc(OC)c2)n(C/C=C/c2ccccc2)n1	TYPE B4	VERO	>40 µg/mL
Cc1cc(OCCCc2ccc(=S)[nH]n2)cc(C)c1-c1noc(C(F)F)n1		HeLa	0.033–0.659 µg/mL
C=C(N=CC)c1nc(-c2ccc(OC)cc2)n(C2O[C@H](CO)[C@@H](O)[C@H](O)[C@H]2O)n1	TYPE B4	HeLa	>200 µg/mL
CC1(C)[C@@H](CCO)C[C@H]1n1nnc2c(N)nc(N)nc21	TYPE B4	VERO	>400 µg/mL
CS(=O)(=O)c1cccnc1Oc1ccc(C(=O)c2ccccc2)cc1	TYPE A21	HeLa	>10 µg/mL

For reference, 4 entries again:

SMILES,strain or isolate,cells,value
NC(=O)CSc1ncnc2c1cnn2CCCCO,TYPE B4,VERO,>400 µg/mL
CS(=O)(=O)c1ccc(Oc2ccc(C(=O)c3ccccc3)cc2)nc1,A21,HeLa,1.3 µg/mL
CC=NC(=N)c1nc(-c2cccc(OC)c2)n(C/C=C/c2ccccc2)n1,TYPE B4,VERO,>40 µg/mL
Cc1ccc(C(=O)CCCCOc2ccc(C3=NC(C)CO3)cc2)s1,TYPE B2,VERO,3.08 µM